Experimental data from patent publication US20090155209A1, “NOVEL MACROCYCLIC INHIBITORS OF HEPATITIS C VIRUS REPLICATION” (priority 2007, published 2009).

Chains of the proteins cited; added tags and fusions are not shown. Residues count along the entry.
UniProt P27958, 1027-1657 limits assumed: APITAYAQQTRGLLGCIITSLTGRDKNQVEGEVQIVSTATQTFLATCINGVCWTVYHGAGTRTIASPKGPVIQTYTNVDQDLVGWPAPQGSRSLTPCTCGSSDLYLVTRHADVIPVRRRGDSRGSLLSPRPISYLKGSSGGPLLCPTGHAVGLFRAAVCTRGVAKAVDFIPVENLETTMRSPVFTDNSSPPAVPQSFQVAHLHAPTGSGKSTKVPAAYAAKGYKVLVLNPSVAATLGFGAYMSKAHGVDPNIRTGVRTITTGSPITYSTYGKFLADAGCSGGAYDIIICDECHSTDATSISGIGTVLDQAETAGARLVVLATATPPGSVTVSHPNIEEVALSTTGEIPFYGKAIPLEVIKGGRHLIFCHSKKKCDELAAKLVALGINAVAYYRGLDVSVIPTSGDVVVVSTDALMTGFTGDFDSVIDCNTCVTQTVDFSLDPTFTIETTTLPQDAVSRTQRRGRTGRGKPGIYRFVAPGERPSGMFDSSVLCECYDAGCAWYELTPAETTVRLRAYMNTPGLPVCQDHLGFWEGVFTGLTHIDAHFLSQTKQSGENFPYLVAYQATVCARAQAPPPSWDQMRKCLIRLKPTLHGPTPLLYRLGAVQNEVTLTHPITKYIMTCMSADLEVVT
UniProt P27958, 1658-1711 partner limits assumed: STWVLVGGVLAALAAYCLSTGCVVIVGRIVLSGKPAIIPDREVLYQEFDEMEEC

Assays:
NS3-NS4 [1] = target: T1, NS3-NS4 (Hepatitis C virus genotype 1a, UniProt P27958); details: NS3-NS4 activity
NS3-NS4 [2] = target: T1, NS3-NS4; experiment: NS3-NS4 activity, IC50 (Example 37, Table 8); assay type: biochemical

Row | SMILES | EC50 (NS3-NS4 [1]) [nM] | IC50 (NS3-NS4 [2]) [nM]
1 | CCC1(S(=O)(=O)NC(=O)[C@@]23C[C@H]2/C=C\CCCCC[C@H](NC(=O)OC(C)(C)C)C(=O)N2C[C@H](OC(=O)N4Cc5cccc(F)c5C4)C[C@H]2C(=O)N3)CC1 | < 100 | < 100
2 | CCCC1(S(=O)(=O)NC(=O)[C@@]23C[C@H]2/C=C\CCCCC[C@H](NC(=O)OC(C)(C)C)C(=O)N2C[C@H](OC(=O)N4Cc5cccc(F)c5C4)C[C@H]2C(=O)N3)CC1 | < 100 | < 100
3 | CC(C)CC1(S(=O)(=O)NC(=O)[C@@]23C[C@H]2/C=C\CCCCC[C@H](NC(=O)OC(C)(C)C)C(=O)N2C[C@H](OC(=O)N4Cc5cccc(F)c5C4)C[C@H]2C(=O)N3)CC1 | < 100 | < 100
4 | COCC1(S(=O)(=O)NC(=O)[C@@]23C[C@H]2/C=C\CCCCC[C@H](NC(=O)OC(C)(C)C)C(=O)N2C[C@H](OC(=O)N4Cc5cccc(F)c5C4)C[C@H]2C(=O)N3)CC1 | < 100 | < 100
5 | CC(C)(C)OC(=O)N[C@H]1CCCCC/C=C\[C@@H]2C[C@@]2(C(=O)NS(=O)(=O)C2(C)CC2)NC(=O)[C@@H]2C[C@@H](OC(=O)N3Cc4cccc(F)c4C3)CN2C1=O [Compound 444] | < 100 | < 100
